Reference: patent US10364226B2, “Pyridazinone compounds and uses thereof” (priority 2013, dated 2019)

Columns and labels:
EN PA = EN PA (Influenza A virus, UniProt P15659); assay: EN PA FRET Inhibition Assay; type: biochemical; conditions: read-out: Potency; full length recombinant EN PA, FRET RNA probe cleavage
[1] = tested on: Influenza strain A549 A/WSN/33 (H1N1); assay: Influenza Antiviral Assay; type: cell-based, Influenza A virus; conditions: read-out: % Inhibition; A549 or MDCK cells infected with A/WSN/33 (H1N1), 20 hours; neuraminidase fluorescence readout

Question: Which IC50 (EN PA) does the source give for `CNC(=O)c1nn(CC2(n3cc(C)c4cccnc43)CCCC2)cc(OC(=O)[C@@H](NC(=O)OC(C)(C)C)C(C)C)c1=O` here?
Answer: < 0.1 µM

Question: And the EC50 [1]?
Answer: < 20 µM
